Compound potency records, mixed from different reports. Data source: NIAID ChemDB in PubChem.

Shared fields: growth or infection tests; agent: Mycobacterium tuberculosis

ECn: concentration that inhibits the pathogen or its effect by n%. Conditions beyond the fields shown may differ between rows. An empty or dashed field is not shown. MIC bound: limit read from a one-dose screen. A number after MIC or MFC names an inhibition level or a share of isolates. Zones are inhibition diameters on agar. Inhibition is in % at the dose shown (toxicity tests: loss of growth or viability).

structure	conditions	strain or isolate	read by	read-out	tested at	cell line	value
CC[C@@H](CO)NCCN[C@@H](CC)CO		ATTC 27294	resazurin	MIC			15.9 µM
C[CH2][Sn]1([CH2]C)[O]C2C(O)OC(CO)C(O)C2[O]1		H37Rv	BACTEC	MIC bound			≤12.5 µg/mL
NN=C1/C(=C/c2ccco2)CNC/C1=C\c1ccco1		H37Rv	agar / visual reading	MIC			12.5 µg/mL
CCOC(=O)C1=C(Nc2ccc(Cl)cc2)C(=O)N(C(C)(C)C)C1		H37Rv	BACTEC	inhibition	12.8 µg/mL		8%
CCCCc1ccc2nccc(NN)c2c1		H37Rv		MIC		VERO	6.25 µg/mL
Cc1ccc(NC(=O)CCC(=O)Nc2ccc(C)c(C)c2)cc1C		H37Rv		MIC			500 µM
COCCN1CCN(c2cc(=O)c3nc4c(oc3c2)c2c(=O)c3c(O)c(C)c5c(c34)=C(O)[C@@](C)(O/C=C/[C@H](OC)[C@@H](C)[C@@H](OC(C)=O)[C@H](C)[C@H](O)[C@H](C)[C@@H](O)[C@@H](C)/C=C/C=C(/C)C(=O)N2)O5)CC1		H37Rv		MIC			0.035 µg/mL
COc1ccc(Cc2c(C)c(C#N)c3[nH]c4ccccc4n3c2=O)cc1		H37Rv	resazurin	MIC90			0.25 µg/mL
CCCCOc1ccc2nccc(NN)c2c1	inside macrophages	H37Rv		EC90			>1 µg/mL
Cc1n[nH]c(=S)n1/N=C/c1cc(F)ccc1Cl		H37Rv	agar diffusion / visual reading	zone	10000 µg/mL		8.5 mm
Cn1c(-c2ccc(/C=N/Nc3ccnc(N/N=C/c4ccc(-c5c[n+]6ccccc6n5C)cc4)n3)cc2)c[n+]2ccccc12.[Br-].[Br-]		H37Rv	BACTEC	inhibition	12.5 µg/mL		39%
COc1ccc2c(N/N=C/c3ccc(OC)c4ccccc34)cc(C)nc2c1		H37Rv		MIC		VERO	1.56 µg/mL
COCCCn1c2c([n+](C)c1C)C(=O)c1ccccc1C2=O		H37Rv	resazurin	inhibition	6.25 µg/mL		18%
O=C(CCC(=O)Nc1ccc(Cl)c(Cl)c1)Nc1ccc(Cl)c(Cl)c1		H37Rv		MIC			250 µM
COc1ccc(/C=N/Nc2ccnc3cc(Cl)cc(Cl)c23)c2ccccc12		H37Rv		MIC		VERO	>12.5 µg/mL
COc1cc2cc[n+](C)c(Cc3ccc(Oc4cc(Cc5c6cc(OC)c(OC)cc6cc[n+]5C)ccc4OC)cc3)c2cc1OC.[Cl-].[Cl-]		H37Rv	BACTEC	MIC bound			>12.5 µg/mL
CC(C)c1nc(CN(C)C(=O)N[C@H](C(=O)N[C@@H](Cc2ccccc2)C[C@H](O)[C@H](Cc2ccccc2)NC(=O)OCc2cncs2)C(C)C)cs1		ATTC 27294	resazurin	MIC			>138.7 µM
C[n+]1cccc(C(N)=O)c1.[I-]		H37Rv	BACTEC	inhibition	12.5 µg/mL		11%
C#CCn1ncc2c(SCc3ccccc3)ncnc21		H37Rv	BACTEC	inhibition	12.5 µM		>90%
O=C(Nc1ccc(Cl)cc1)Nc1nnc2nc(C(C(=O)c3ccc(Cl)cc3Cl)c3nc4nnc(NC(=O)NC5C=CC(Cl)=CC5)n4[nH]c3=O)c(=O)[nH]n12		H37Rv	BACTEC	MIC bound			>12.5 µg/mL
O=C(CCC(=O)Nc1ccc(F)cc1)Nc1ccc(F)cc1		H37Rv		MIC			250 µM
CC(C)[C@@H]1C2[C@H](O)[C@@H]3[C@@H](C)CC[C@@H]4[C@@H](C)C[C@@H]1[C@]34C(=O)C2(C)C		H37Rv		EC50			>6.25 µg/mL
CCCCN1CCN(c2cc(=O)c3nc4c(oc3c2)c2c(=O)c3c(O)c(C)c5c(c34)=C(O)[C@@](C)(O/C=C/[C@H](OC)[C@@H](C)[C@@H](OC(C)=O)[C@H](C)[C@H](O)[C@H](C)[C@@H](O)[C@@H](C)/C=C/C=C(/C)C(=O)N2)O5)CC1		H37Rv		MIC			0.035 µg/mL
Cl.c1ccc2c(c1)Oc1ccccc1N2CCN1CCCCC1		H37Rv	BACTEC	MIC bound			>12.5 µg/mL
C=CCCN1CCN(c2cc(=O)c3nc4c(oc3c2)c2c(=O)c3c(O)c(C)c5c(c34)=C(O)[C@@](C)(O/C=C/[C@H](OC)[C@@H](C)[C@@H](OC(C)=O)[C@H](C)[C@H](O)[C@H](C)[C@@H](O)[C@@H](C)/C=C/C=C(/C)C(=O)N2)O5)CC1		H37Rv		MIC			0.017 µg/mL
NCc1ccccc1-c1c2nc(c(-c3ccccc3CN)c3ccc([nH]3)c(-c3ccccc3CN)c3nc(c(-c4ccccc4CN)c4ccc1[nH]4)C=C3)C=C2		H37Rv	resazurin	inhibition	6.25 µg/mL		60%
CCC(C)N1CCC2(CC1)N=c1c(c3c4c5c(C)c(O)c3c(O)c1=NC(=O)/C(C)=C\C=C\[C@H](C)[C@H](O)[C@@H](C)[C@@H](O)[C@@H](C)[C@H](OC(C)=O)[C@H](C)[C@@H](OC)/C=C/O[C@@](C)(O5)C4=O)N2		H37Rv		MIC			0.0025 µg/mL
CCOC(=O)C(=CNC(=S)N=Nc1c(O)[nH]c2ccccc12)C(=O)OCC		H37Rv	BACTEC	MIC bound			>6.25 µg/mL
Cc1n[nH]c(=S)n1/N=C/c1ccc(F)c(F)c1F		H37Rv	agar diffusion / visual reading	zone	10000 µg/mL		13 mm
CO[C@H]1/C=C/O[C@@]2(C)Oc3c(C)c(O)c4c(O)c(c5c(c4c3C2=O)NC2(CCN(CC(C)C)CC2)N=5)=NC(=O)/C(C)=C\C=C\[C@H](C)[C@H](O)[C@@H](C)[C@@H](O)[C@@H](C)[C@H](OC(C)=O)[C@@H]1C		Strain 5 (RIF-resistant)		MIC			10 µg/mL
Cc1n[nH]c(=S)n1/N=C/c1ccc(Br)cc1F		H37Rv	agar diffusion / visual reading	zone	10000 µg/mL		9 mm
CO[C@H]1/C=C/O[C@@]2(C)Oc3c(C)c(O)c4c(O)c(c5c(c4c3C2=O)NC2(CCNCC2)N=5)=NC(=O)/C(C)=C\C=C\[C@H](C)[C@H](O)[C@@H](C)[C@@H](O)[C@@H](C)[C@H](OC(C)=O)[C@@H]1C		H37Rv		MIC			0.01 µg/mL
CC(=O)N1CCC23c4ccccc4N(C)C2CC(=O)CC13		H37Rv	BACTEC	MIC bound			>12.5 µg/mL
CO[C@H]1/C=C/O[C@@]2(C)Oc3c(C)c(O)c4c(=O)c(c5oc6cc(N7CCN(C)CC7)cc(=O)c6nc5c4c3=C2O)NC(=O)/C(C)=C\C=C\[C@H](C)[C@H](O)[C@@H](C)[C@@H](O)[C@@H](C)[C@H](OC(C)=O)[C@@H]1C		H37Rv		MIC			0.017 µg/mL
CO[C@H]1/C=C/O[C@@]2(C)Oc3c(C)c(O)c4c(O)c(c5c(c4c3C2=O)NC2(CCN(CC(C)C)CC2)N=5)=NC(=O)/C(C)=C\C=C\[C@H](C)[C@H](O)[C@@H](C)[C@@H](O)[C@@H](C)[C@H](OC(C)=O)[C@@H]1C		H37Rv		MBC			0.125 µg/mL
CCC1CN2CCc3cc(OC)c(OC)cc3C2CC1CC1c2cc(OC)c(OC)cc2CCN1C(=O)C1CCCN1		H37Rv	BACTEC	inhibition	12.5 µg/mL		9%
CC1=C2C3B(OCCOC3C=C1)O[C@@H]2CN		H37Rv	resazurin / fluorescence	EC50			0.2 µM
CC1=CC(=O)c2c(ccc(C3=C(C)C(=O)c4cccc(O)c4C3=O)c2O)C1=O		H37Rv (S-MTB)	resazurin	MIC			50 µg/mL
Clc1ccc(N=C2/C(=C/c3ccco3)CNC/C2=C\c2ccco2)cc1		H37Rv	agar / visual reading	MIC			6.25 µg/mL
CO[C@H]1/C=C/O[C@@]2(C)Oc3c(C)c(O)c4c(=O)c(c5oc6cc(N(C)CCc7ccccn7)cc(=O)c6nc5c4c3=C2O)NC(=O)/C(C)=C\C=C\[C@H](C)[C@H](O)[C@@H](C)[C@@H](O)[C@@H](C)[C@H](OC(C)=O)[C@@H]1C		H37Rv		MIC			0.017 µg/mL
CO[C@H]1/C=C/O[C@@]2(C)Oc3c(C)c(O)c4c(O)c(c5c(c4c3C2=O)NC2(CCN(C(C)C(C)C)CC2)N=5)=NC(=O)/C(C)=C\C=C\[C@H](C)[C@H](O)[C@@H](C)[C@@H](O)[C@@H](C)[C@H](OC(C)=O)[C@@H]1C		H37Rv		MIC			0.0025 µg/mL
CC(=O)Nc1ccc(S(=O)(=O)N2c3ccccc3[S@](=O)c3cc([N+](=O)[O-])ccc32)cc1		H37Rv	BACTEC	MIC bound			>12.5 µg/mL
Cc1n[nH]c(=S)n1/N=C/c1cc(F)ccc1F		H37Rv	agar diffusion / visual reading	zone	10000 µg/mL		13.5 mm
CC12C(=O)c3cccc(O)c3C(=O)C1CC13OC12C(=O)c1c(O)cccc1C3=O		CIBIN 99 (MDR-MTB)	resazurin	MIC			12.5 µg/mL
N[C@@H](Cc1ccccc1)C[C@@H](O)[C@@H](N)Cc1ccccc1		ATTC 27294	resazurin	MIC			88 µM
O=C1/C(=C/c2ccco2)CNC/C1=C\c1ccco1		H37Rv	agar / visual reading	MIC			6.25 µg/mL
CC(C)c1ccc(NC(=O)CCC(=O)Nc2ccc(C(C)C)cc2)cc1		H37Rv		MIC			>1000 µM
Fc1cc(Cl)ccc1N=C1/C(=C/c2ccco2)CNC/C1=C\c1ccco1		H37Rv	agar / visual reading	MIC			1.56 µg/mL
CCCCCC/C=N/NC(=O)C(=O)N/N=C/CCCCCC		H37Rv	BACTEC	MIC bound			>12.5 µg/mL
CC1=C(C2=C(C)C(=O)c3cccc(O)c3C2=O)C(=O)c2c(O)cccc2C1=O		CIBIN 99 (MDR-MTB)	resazurin	MIC			3.13 µg/mL
Cc1cc(/C=N/Nc2ccnc3ccc(C4CCCCC4)cc23)c(C)n1-c1ccccc1		H37Rv		inhibition	12.5 µg/mL	VERO	100%
C[C@H]1CC(=O)c2c(O)cccc2[C@H]1O		H37Rv (S-MTB)	resazurin	MIC			>100 µg/mL
Cc1cc(N/N=C/c2ccc3c(c2)OCO3)c2c(Cl)cc(Cl)cc2n1		H37Rv		inhibition	12.5 µg/mL	VERO	4%
CC(C)(C)OC(=O)N[C@@H](Cc1ccccc1)[C@H](O)C[C@H](Cc1ccccc1)N=Cc1ncc[nH]1		ATTC 27294	resazurin	MIC			13.4 µM
CCOP(=O)(OCC)/C(=C/NC(=S)c1ccncc1)C(=O)OC		H37Rv	BACTEC	inhibition	12.5 µg/mL		46%
C#C[C@@]12O[C@]1(CO)[C@@H]1[C@@H](O)C[C@H]3C(C)(C)CCC[C@]3(C)[C@H]1CC2=O		Sensitive strains		MIC			50 µg/mL
CCC1=CC(=O)C(C)=C(C)C1=O		H37Rv	BACTEC	inhibition	128 µg/mL		100%
Cc1n[nH]c(=S)n1/N=C/c1ccc(F)cc1Cl		H37Rv	agar diffusion / visual reading	zone	10000 µg/mL		12 mm
CO[C@H]1/C=C/O[C@@]2(C)Oc3c(C)c(O)c4c(O)c(c(/C=N/N5CCN(C)CC5)c(O)c4c3C2=O)NC(=O)/C(C)=C\C=C\[C@H](C)[C@H](O)[C@@H](C)[C@@H](O)[C@@H](C)[C@H](OC(C)=O)[C@@H]1C		CIBIN 99 (MDR-MTB)	resazurin	MIC			100 µg/mL
Cc1c(Cc2ccc(F)cc2)c(=O)n2c([nH]c3ccccc32)c1C#N		H37Rv	broth dilution	MIC			2 µg/mL
CC/C(=N\NC(=O)c1ccncc1)c1ccc(Cl)cc1		H37Rv	resazurin	MIC bound			<6.25 µg/mL
CO[C@H]1/C=C/O[C@@]2(C)Oc3c(C)c(O)c4c(=O)c(c5oc6cc(N7CCN(CC(C)C)CC7)cc(=O)c6nc5c4c3=C2O)NC(=O)/C(C)=C\C=C\[C@H](C)[C@H](O)[C@@H](C)[C@@H](O)[C@@H](C)[C@H](OC(C)=O)[C@@H]1C		H37Rv		MIC			0.017 µg/mL
C[C@H]1[C@H](C)CC[C@]2(C(=O)O)CC[C@]3(C)C(CC[C@@H]4[C@@]5(C)C[C@H](O)CC(C)(C)[C@@H]5CC[C@]43C)[C@H]12		EMB-R (ATCC 35837)	resazurin	MIC			25 µg/mL
Fc1cccc(F)c1C1SCc2nc3ccccc3n21		H37Rv	BACTEC	inhibition	12.5 µg/mL		0%
O=C(Nc1ccc([N+](=O)[O-])cc1)C(=O)Nc1ccc([N+](=O)[O-])cc1		H37Rv		MIC			37 µM
NNC(=O)CNC(=O)C(Cc1c[nH]c2ccccc12)NC(=O)OCc1ccccc1		H37Rv	BACTEC	MIC bound			>12.5 µg/mL
COc1ccc(/C=N/Nc2cc(C)nc3ccc(F)cc23)c2ccccc12		H37Rv		inhibition	12.5 µg/mL	VERO	100%

A second listing of 3 rows from above:

C#C[C@@]12O[C@]1(CO)[C@@H]1[C@@H](O)C[C@H]3C(C)(C)CCC[C@]3(C)[C@H]1CC2=O ; strain or isolate: Sensitive strains ; read-out: MIC ; value: 50 µg/mL
CC(=O)Nc1ccc(S(=O)(=O)N2c3ccccc3[S@](=O)c3cc([N+](=O)[O-])ccc32)cc1 ; strain or isolate: H37Rv ; read by: BACTEC ; read-out: MIC bound ; value: >12.5 µg/mL
C[n+]1cccc(C(N)=O)c1.[I-] ; strain or isolate: H37Rv ; read by: BACTEC ; read-out: inhibition ; tested at: 12.5 µg/mL ; value: 11%